Reference: PubChem BioAssay AID504761 (Drosophila RNAi Screening Center, 2011)
Assay: 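Insect host genes that dengue virus relies on to spread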 (primary screen). Cells: D.Mel-2 cells from Drosophila. Reagent: long dsRNA against Drosophila genes. Conditions: infection with dengue virus type 2; dose and infection time not stated. Measurement: 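Cells stained for dengue envelope protein and imaged; percent of infected cells per well on duplicate plates, ranked by infection, with stained nuclei counted for cell number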. Direction: infection score: higher = more virus-infected cells; cell count: higher = more cells in the well. Active means: 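Low infection ranks in the two replicates (chance level up to 0.065) followed by a retest with a 1.5-fold or larger significant decrease, p below 0.05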. Meaning of the calls: active = confirmed: knock-down lowers infection; inactive = not picked or not confirmed.
In all, the deposit lists about 22,000 reagents; below is a random part of those that have a named target and a result. Of all reagents, 116 (0.52%) were called active. 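Calls depend on retest data that are not deposited; infection was ranked per plate without normalising between plates; the unit of the infection score is not given.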 Raw values vary from plate to plate and are shown uncorrected. Reagents against one gene are numbered here. Names joined by + are all predicted targets of the reagent. Further read-outs or replicates are left out here. Not stated in the record: the amount of reagent, the time to read-out.

Gene	reagent no.	infection score, replicate 1	infection score, replicate 2	cell count, replicate 1	Call
CG8630	1	1.43	14.8	6862	inactive
CG8630	2	7.86	4.69	6021	inactive
CG4968	1	4.98	3.62	6712	inactive
CG4968	2	18.9	9.76	6440	inactive
OXA1L (OXA1L mitochondrial inner membrane protein)	1	6.71	6.66	4857	inactive
OXA1L (OXA1L mitochondrial inner membrane protein)	2	13.8	17.4	3164	inactive
CG15047	1	11.8	9.13	5712	inactive
CG15047	2	2.13	4.1	6156	inactive
CG15047	3	26.5	10.9	5512	inactive
CG18477 + CG31780	1	2.5	1.62	6638	inactive
Atg101 (Autophagy-related 101)	1	4.25	3.58	4045	inactive
cher (cheerio)	1	6.91	10.4	6917	inactive
cher (cheerio)	2	2.85	7.32	6922	inactive
CG5180	1	2.19	7.44	6989	inactive
CG1544	1	2.79	3.82	5704	inactive
SkpE (SKP1-related E)	1	15.5	2.8	4505	inactive
CG3502 + CG9863	1	2.6	7.82	6231	inactive
CG6508	1	3.08	3.48	6813	inactive
ATP8B (ATPase 8B)	1	3.18	4.66	6917	inactive
TfIIFbeta (Transcription factor TFIIFbeta)	1	1.63	3.61	6302	inactive
TfIIFbeta (Transcription factor TFIIFbeta)	2	5.49	2.41	3570	inactive
TfIIFbeta (Transcription factor TFIIFbeta)	3	30.4	10.8	5858	inactive

Continued (3 carried over from the part before).
Gene	reagent no.	infection score, replicate 1	infection score, replicate 2	cell count, replicate 1	Call
TfIIFbeta (Transcription factor TFIIFbeta)	1	1.63	3.61	6302	inactive
TfIIFbeta (Transcription factor TFIIFbeta)	2	5.49	2.41	3570	inactive
TfIIFbeta (Transcription factor TFIIFbeta)	3	30.4	10.8	5858	inactive
Shaw (Shaker cognate w)	1	4.13	3.77	6251	inactive
Shaw (Shaker cognate w)	2	2.57	6.45	6105	inactive
Shaw (Shaker cognate w)	3	1.44	1.25	5904	inactive
CkIalpha (Casein kinase Ialpha)	1	7.18	22.6	5250	inactive
CkIalpha (Casein kinase Ialpha)	2	12.7	10.4	3343	inactive
CkIalpha (Casein kinase Ialpha)	3	3.2	14.1	5404	inactive
CkIalpha (Casein kinase Ialpha)	4	2.23	8.43	4925	inactive
Sod3 (Superoxide dismutase 3)	1	26	24.2	5861	inactive
Sod3 (Superoxide dismutase 3)	2	14.7	5.06	5857	inactive
Ir68a (Ionotropic receptor 68a)	1	2.41	0.6	5925	inactive
CG31806	1	15.1	4.33	5437	inactive
CG31806	2	10.6	8.65	6174	inactive
nht (no hitter)	1	1.6	5.98	6610	inactive
hd (humpty dumpty)	1	13.2	5.31	6571	inactive
hd (humpty dumpty)	2	22.6	10.5	5552	inactive
mRpS24 (mitochondrial ribosomal protein S24)	1	15.6	6.27	2071	inactive
CG13223	1	16.9	5.91	5385	inactive
noi (noisette)	1	13.6	10.1	1182	inactive
noi (noisette)	2	13.9	22.6	1299	inactive
CG6398	1	4.68	2.35	6384	inactive
CSN3 (COP9 signalosome subunit 3)	1	9.5	2.34	6442	inactive
CSN3 (COP9 signalosome subunit 3)	2	7.3	2.14	5531	inactive
bi (bifid)	1	8.35	19.3	5686	inactive
bi (bifid)	2	22.4		3368	inactive
CG16758	1	0.04	0.19	5180	inactive
CG16758	2	9.81	9.19	6695	inactive
CG16758	3	7.93	18.6	3152	inactive
Ir87a (Ionotropic receptor 87a)	1	5.66	20.1	6868	inactive
Ir87a (Ionotropic receptor 87a)	2	11.1	5.38	6614	inactive
CG31111	1	5.47	12.5	1665	inactive
l(3)05822 (lethal (3) 05822)	1	3.09	2.69	5624	inactive
l(3)05822 (lethal (3) 05822)	2	0.62	1.48	6130	inactive
repo (reversed polarity)	1	2.16	9.63	6531	inactive
repo (reversed polarity)	2	9.55	12.4	6063	inactive
Dus3 (Dihydrouridine synthase 3)	1	19.7	3.97	5625	inactive
Dus3 (Dihydrouridine synthase 3)	2	4.58	8.75	6812	inactive
